In patent US20240245673A1, “Papain-like protease (PLpro) inhibitors” (Pfizer Inc., priority 2022, published 2024):

Molecular target: SARS-CoV-2 Papain like protease (PLpro) (Severe acute respiratory syndrome coronavirus 2 (2019-nCoV) (SARS-CoV-2), UniProt P0DTD1)
Experiment: Papain Like Protease (PLpro) biochemical assay with profluorogenic substrate Z-RLRGG-AMC
Details: SARS-CoV-2 PLpro 6.25 nM, 25 μM Z-RLRGG-AMC substrate, 60 minute reaction

## Cc1cc(CC(O)Cc2ccccn2)ccc1C(=O)NC1(c2cc(-c3cnn(C)c3)nc3ccccc23)CC1 (stereo not drawn)
  IC50: 1 nM

## COC(Cc1ccc(C(=O)NC2(c3cc(-c4cnn(C)c4)nc4ccccc34)CC2)c(C)c1)Cc1ccccn1 (stereo not drawn)
  IC50: 4 nM

## Cc1ccc(N2CCN(CCO)CC2)cc1C(=O)NC1(c2cc(-c3cnn(C)c3)nc3ccccc23)CC1
  IC50: 3 nM
